Tested on: HIV
Assay: Anti-AIDS (HIV) activity in HIV-infected MT-4 cells (MTT method)
Type: cell-based
Conditions: CC50/EC50, MT-4 cells
Method: Evaluation method: Test substances having various concentrations were placed in a 96-well microtiter plate along with HIV-infected MT-4 cells (2.5×10^4 /well, MOI: 0.01) immediately after the infection thereof. In order to ascertain the cytotoxicity of the test substance with respect to the MT-4 cells, non-infected cells were cultured in an identical manner along with the test substances of various concentrations. After culturing for 5 days at a temperature of 37° C. in a CO2 incubator, the number of living cells was determined using the MTT method. The antiviral activity is shown in terms of the concentration which prevented 50% of the cytopathogenic effects of the HIV virus (EC50 : 50% effective concentration) and the cytotoxicity is shown in terms of the concentration at which the cytotoxicity of the test substance reaches 50% (CC50 : 50% cytotoxic concentration).Furthermore, the selectivity index (S.I.) is calculated as CC50 /EC50.
(Reference: Pauwels, et al., J. Viral Methods, 20 (1988) 309-321). Using this method, the compounds of Examples 30-43 were tested for anti-HIV activity. The compounds shown in Table 2 (Examples 35~38) are produced by means of novel sulfation methods. For the purposes of comparison, the conventional anti-AIDS agents AZT (3'-azido-2',3'-dideoxythymidine) and dextran sulfate were also tested, and the results thereof are appended as comparative data.

| Substance | SI (selectivity index, CC50/EC50) |
| --- | --- |
| dextran sulfate [reference compound] | 2000 |
| heptyloxyphenyl β-D-galactopyranosyl-(1→4)-{β-D-galactopyranosyl-(1→4)}2 -β-D-glucopyranoside sulfate [Example 42] | > 4348 |
| octyloxyphenyl β-D-galactopyranosyl-(1→4)-{β-D-galactopyranosyl-(1→4)}2 -β-D-glucopyranoside sulfate [Example 40] | > 1052 |
| octyloxyphenyl β-D-galactopyranosyl-(1→4)-β-D-galactopyranosyl-(1→4)-β-D-glucopyranoside sulfate [Example 41] | > 892 |
| octylphenyl β-D-galactopyranosyl-(1→4)-{β-D-galactopyranosyl-(1→4)}2 -β-D-glucopyranoside sulfate [Example 39] | > 1219 |
| p-(1,1,3,3-tetramethylbutyl)phenyl β-D-galactopyranosyl-(1→4)-{β-D-galactopyranosyl-(1→4)}2 -β-D-glucopyranoside sulfate [Example 43] | > 25000 |
| p-(1,1,3,3-tetramethylbutyl)phenyl β-D-glucopyranosyl-(1→3)-{β-D-glucopyranosyl-(1→3)}3 -β-D-glucopyranoside sulfate [Example 35] | > 26300 |
| p-(1,1,3,3-tetramethylbutyl)phenyl β-D-glucopyranosyl-(1→3)-{β-D-glucopyranosyl-(1→3)}m -β-D-glucopyranoside sulfate [Example 38] | > 45400 |
| p-heptyloxyphenyl β-D-glucopyranosyl-(1→3)-{β-D-glucopyranosyl (1→3)}3 -β-D-glucopyranoside sulfate [Example 36] | > 16100 |
| p-heptyloxyphenyl β-D-glucopyranosyl-(1→3)-{β-D-glucopyranosyl-(1→3)}3 -β-D-glucopyranoside sulfate [Example 33] | > 1298 |
| p-octylphenyl β-D-glucopyranosyl-(1→3)-{β-D-glucopyranosyl (1→3)}3 -β-D-glucopyranoside sulfate [Example 30] | > 1612 |
| p-octylphenyl β-D-glucopyranosyl-(1→3)-{β-D-glucopyranosyl (1→3)}3 -β-D-glucopyranoside sulfate [Example 37] | > 12500 |
| p-octylphenyl β-D-glucopyranosyl-(1→3)-{β-D-glucopyranosyl (1→3)}5 -β-D-glucopyranoside sulfate [Example 34] | > 3226 |
| p-pentylphenyl β-D-glucopyranosyl-(1→3)-{β-D-glucopyranosyl (1→3)}3 -β-D-glucopyranoside sulfate [Example 31] | > 1333 |
| sulfated p-heptyloxyphenyl β-D-glucopyranosyl-(1→3)-{β-D-glucopyranosyl-(1→3)}3 -β-D-glucopyranoside [Example 32] | > 1389 |

Reference: patent publication US5498602A, “Oligosaccharide aromatic glycoside and sulfate thereof” (priority 1991, dated 1996)
